Data on one compound can be found in ChEMBL document CHEMBL1152646, “Synthesis, molecular docking and biological evaluation of metronidazole derivatives as potent Helicobacter pylori urease inhibitors” (Bioorg Med Chem, 2009).

The chains behind the UniProt entries cited, without tags or fusion partners. Where a name states a change or a piece, a line headed by the entry shows the natural chain unless it says otherwise.
UniProt P69996: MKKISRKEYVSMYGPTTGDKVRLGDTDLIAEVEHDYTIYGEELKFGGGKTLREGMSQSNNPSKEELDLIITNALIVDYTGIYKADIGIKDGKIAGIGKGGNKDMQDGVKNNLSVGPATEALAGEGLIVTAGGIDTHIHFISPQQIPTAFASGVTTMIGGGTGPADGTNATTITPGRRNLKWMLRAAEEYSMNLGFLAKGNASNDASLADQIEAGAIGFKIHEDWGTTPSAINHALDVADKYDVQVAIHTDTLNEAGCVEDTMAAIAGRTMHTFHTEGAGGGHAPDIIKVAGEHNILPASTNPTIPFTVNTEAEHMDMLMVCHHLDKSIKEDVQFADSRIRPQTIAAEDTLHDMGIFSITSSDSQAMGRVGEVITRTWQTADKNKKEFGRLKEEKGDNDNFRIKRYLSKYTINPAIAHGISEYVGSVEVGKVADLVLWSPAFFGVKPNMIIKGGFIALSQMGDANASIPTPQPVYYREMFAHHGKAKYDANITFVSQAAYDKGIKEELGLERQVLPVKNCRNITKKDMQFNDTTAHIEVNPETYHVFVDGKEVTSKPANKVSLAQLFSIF
UniProt P14916: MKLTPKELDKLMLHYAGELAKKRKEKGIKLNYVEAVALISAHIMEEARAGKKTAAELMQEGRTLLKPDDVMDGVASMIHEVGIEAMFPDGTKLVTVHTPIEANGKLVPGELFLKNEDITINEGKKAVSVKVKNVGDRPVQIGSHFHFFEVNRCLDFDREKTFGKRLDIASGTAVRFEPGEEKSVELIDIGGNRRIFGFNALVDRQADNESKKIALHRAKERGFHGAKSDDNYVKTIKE

The term inhibition denotes the share of the control response that was lost under treatment.

For the experiment, the target named is Urease subunit alpha/Urease subunit beta (Helicobacter pylori (strain ATCC 700392 / 26695) (Campylobacterpylori)) (UniProt P69996+P14916). As to the kind of experiment: Inhibition of Helicobacter pylori ATCC 43504 urease assessed as ammonia production at 1 mM after 3 hrs by indophenol method. In a few lines: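 Crude urease from H. pylori ATCC 43504 grown 24 h at 37 °C microaerobically in brucella broth with 10% heat-inactivated horse serum; cells PBS-washed, stored at -80 °C, sonicated 60 s in water with protease inhibitors, extract mixed 1:1 with glycerol. Enzyme (4 U) preincubated 3 h at room temperature with compound; ammonia measured by indophenol method; percent inhibition.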

In the case of `Cc1ncc([N+](=O)[O-])n1CCOc1c(C(=O)O)cc([N+](=O)[O-])cc1[N+](=O)[O-]`, the inhibition came to 41.5%.
